The source of these data is US20040258699A1.

This experiment concerns the target PA63 (anthrax protective antigen, 63 kDa form) (Bacillus anthracis) (UniProt P13423).

The substance “LF protein (lethal factor) (from UniProt P15917 34-809)” displayed an IC50 (read off the curve) of 0.07 µg/mL.
